Results as given in paper PMC12239557, “Structure and stabilization of the antigenic glycoprotein building blocks of the New World mammarenavirus spike complex” (mBio, 2025).

Target: JUNV GP1 subunit of the JUNV GP1^88-329GP2^e constructs (Junin virus, XJ13 (GenBank ACO52428), UniProt C1K9J9, strain, […] N-linked glycans ordered at Asn95, Asn166 and Asn178)
Settings: both partners purified

B1: Fab fragment of neutralizing monoclonal antibody JUN1 (Fab, V domains shown)
VH: LVQSVETGGGLVRPGNSLKLSCVTSGFTFSNYQMHWLRQPPGKRLEWIAVITVKSDNYGANYVESVKGRFAISRDDSKSSVYLEMNRLREEDTATYFCSRSGIYDGYYAYAMDYWGQGTSVTVSS
VL: SVVMTQSQKFMSTSVGDRVSITCKASQIVGTSVAWYQQKAGQSPKLLIYWASTRHTGVPDRFTAGGSGTDFTLTITNVQSEDLADYFCQQYATYPLTFGSGTKLELK
B1: binds.
